Results published in publication PMC10572428, “Possibility of Using Different Calcium Compounds for the Manufacture of Fresh Acid Rennet Cheese from Goat’s Milk” (Foods, 2023).

Experiments:
Set-up in all cases: species or system goat
[1] = Concentrations of macro- and micro-elements in cheese (ICP-OES); conditions: for increase in calcium content of cheese compared to the control: 20 mg Ca 100 g^−1 of milk
Cheese yield = conditions: 20 mg Ca 100 g^−1 milk
[2] = Protein retention in cheese; conditions: 20 mg Ca 100 g^−1 of milk

SMILES | increase in calcium content of cheese compared to the control [1] [mg] | increase in cheese yield compared to the control (Cheese yield) [%] | reduction of protein retention compared to the control cheese [2] [%] | increase in phosphorus content of cheese compared to the control cheese ([1]; highest level) [mg]
O=C([O-])[O-].[Ca+2] [Carbonate, calcium carbonate] | 15.06 | – | – | –
[Ca+2].[Cl-].[Cl-] [Chloride, Calcium chloride, reference compound] | – | 2.55 | – | –
O=C([O-])[C@H](O)[C@@H](O)[C@H](O)[C@H](O)CO.O=C([O-])[C@H](O)[C@@H](O)[C@H](O)[C@H](O)CO.[Ca+2] [Gluconate, calcium gluconate] | – | 4.04 | 7.66 | 31.53
CC(O)C(=O)[O-].CC(O)C(=O)[O-].[Ca+2] (stereo not drawn) [Lactate, calcium lactate] | 20.81 | – | – | –
